Reference: PMC4888613, “Antifilarial activity of diterpenoids from Taxodium distichum” (Parasites & Vectors, 2016)

What was measured:
[1] = system: Brugia malayi microfilariae (Mf); assay: In vitro motility assay on microfilariae; format: cell-based; conditions: Selectivity Index CC50/IC50, microfilariae
Procedure: (§1) Microfilariae and adult worms were harvested from p.c. of the M. unguiculatus harbouring approximately 5–6 month-old B. malayi infection. The parasites were washed thoroughly with HBSS (pH 7.2) containing antibiotics (penicillin: 100 U/ml; streptomycin: 100 μg/ml) and used for the present study.
(§2) Motility and 3-(4,5-dimethylthiazol-2-yl)-2,5 diphenyltetrazolium bromide (MTT; Sigma-Aldrich, USA) reduction assays that indicate viability of the parasites were used. Test samples and ivermectin (purity 95 %; Sigma-Aldrich, USA) were dissolved in dimethyl sulfoxide (DMSO; Sigma-Aldrich, USA); the final concentration of DMSO in the incubation medium Hanks Balanced Salt Solution (HBSS; Sigma-Aldrich, USA) containing 100 U/ml penicillin and 100 μg/ml streptomycin (Sigma-Aldrich, USA), was kept ≤ 0.1 %. Diethylcarbamazine-citrate (DEC-C; purity 100 %; Sigma-Aldrich, USA) solution was prepared in sterile distilled water. HBSS containing DMSO (≤ 0.1 %) alone was used as negative control.
(§3) In vitro efficacy of the test agents and reference drugs was assessed on mf (40–50 mf/100 μl/well) in a 96-well cell culture plate (Nunc, Denmark) and on adult female worms (1 worm/ml/well) in a 48-well plate (Nunc, Denmark). The assays were run in triplicates.
(§4) Motility assay using mf and adult worms was carried out as described elsewhere. Changes in parasite motility was assessed under a microscope and scored as: 0 = dead (100 %); 1-4 = loss of motility (1 = 75 %; 2 = 50 %; 3 = 25 %; and 4 = no loss of motility). The experiment was repeated twice.
(§5) IC50 and CC50 of the test agents were determined using the method described elsewhere. […] The experiments were repeated twice.
(§6) Data were transferred to a graphic program (MS Excel) and IC50 and CC50 were calculated by linear interpolation between the two concentrations above and below 50 % inhibition.

[2] = system: Brugia malayi adult worms (AW); assay: In vitro motility assay on adult female worms; format: cell-based; conditions: Selectivity Index CC50/IC50, adult worms
Procedure: as §1, §2, §3, §4, §5, §6

Row | SMILES | SI for Mf in MA [1] | SI for AW in MA [2]
1 | C=C1CCC2C(C)(C)C(OC(C)=O)CC[C@@]2(C)C1CC/C(C)=C/C(=O)O (stereo partly drawn) [Compound K001, 3-Acetoxylabda-8(20),13-diene-15-oic acid] | 7.88 | 16.91
2 | C=C1CCC2C(C)(C)CCC[C@@]2(C)C1CC/C(C)=C/C(=O)O (stereo partly drawn) [Compound K003, labda-8(20),13-diene-15-oic acid] | 9.69 | 2.42
3 | CCN(CC)C(=O)N1CCN(C)CC1 [DEC-C, Diethylcarbamazine-citrate] | 30.27 | 28.57
